Results as given in patent publication US5492896A, “Pseudopeptides having an antiviral action” (Bayer Aktiengesellschaft, priority 1993, dated 1996).

Experiments:
HIV protease (HIV-1) = HIV protease (HIV-1) (Human immunodeficiency virus type 1 group M subtype B, UniProt P04585); assay: HIV-specific protease enzyme test (synthetic peptide cleavage, RP-HPLC); conditions: read-out: IC50 (RP-HPLC) (μM) HIV-1; 50% inhibition of protease activity; purified HIV protease, synthetic Gag cleavage-site peptide
Procedure: This is documented by an HIV-specific protease enzyme test.
The results of the examples described below were determined by the HIV test system described in the following literature references [compare Hansen, J., Billich, S., Schulze, T., Sukrow, S. and Molling, K. (1988), EMBO Journal, volume 7, No. 6, pages 1785-1791]: purified HIV protease was incubated with a synthetic peptide which imitates a cutting site in the Gag precursor protein and represents an in vivo cleavage site of HIV protease. The cleavage products formed from the synthetic peptide were analysed by reverse phase high performance liquid chromatography (RP-HPLC). The IC50 values stated relate to the substance concentration which causes 50% inhibition of protease activity under the abovementioned test conditions.

HCMV (Davis strain) = assay: Anti-HCMV screening test: spread of cytopathogenic effect in HELF cell cultures; type: cell-based, human cytomegalovirus; conditions: read-out: IC50 (μM) HCMV, concentration causing 50% inhibition of the CPE, HELF cells, 6 days

| Structure (SMILES) | IC50 (HIV protease (HIV-1)) [µM] | IC50 (HCMV (Davis strain)) [µM] |
| --- | --- | --- |
| Cc1ccc(S(=O)(=O)N=C(N)NCCC[C@H](NC(=O)OCc2ccccc2)C(=O)N[C@H](C(=O)N[C@H](CO)Cc2ccccc2)C(C)C)cc1 | 14 |  |
| CCCCOC(=O)CCNC(=O)N[C@@H](CCCNC(N)=NS(=O)(=O)c1ccc(C)cc1)C(=O)N[C@H](C(=O)NC(C=O)Cc1ccccc1)C(C)C (single isomer, unassigned) [52] | 12 |  |
| CCCCOC(=O)CCNC(=O)N[C@@H](CCCNC(N)=NS(=O)(=O)c1ccc(C)cc1)C(=O)N[C@H](C(=O)N[C@H](CO)Cc1ccccc1)C(C)C | 1.6 |  |
| CCCCOC(=O)CCNC(=O)N[C@@H](CCCNC(N)=NS(=O)(=O)c1ccc(C)cc1)C(=O)N[C@H](C(=O)NC(C=O)Cc1ccccc1)C(C)C (single isomer, unassigned) [51] | 2.1 |  |
| COC(=O)CCCNC(=O)N[C@@H](CCCNC(N)=NS(=O)(=O)c1ccc(C)cc1)C(=O)N[C@H](C(=O)NC(C=O)Cc1ccccc1)C(C)C (single isomer, unassigned) [50] | 0.14 |  |
| COC(=O)CCCNC(=O)N[C@@H](CCCNC(N)=NS(=O)(=O)c1ccc(C)cc1)C(=O)N[C@H](C(=O)NC(C=O)Cc1ccccc1)C(C)C (single isomer, unassigned) [49] | 0.26 |  |
| CC(=O)c1ccc(NC(=O)N[C@@H](CCCNC(N)=NS(=O)(=O)c2ccc(C)cc2)C(=O)N[C@H](C(=O)NC(C=O)Cc2ccccc2)C(C)C)cc1 (single isomer, unassigned) [57] | 1.5 |  |
| Cc1c(C)c(S(=O)(=O)N=C(N)NCCC[C@H](NC(=O)OCC2c3ccccc3-c3ccccc32)C(=O)N[C@H](C(=O)N[C@H](CO)Cc2ccccc2)C(C)C)c(C)c2c1OC(C)(C)CC2 | 0.0024 |  |
| COC(C)(C)CNC(=O)N[C@@H](CCCNC(N)=NS(=O)(=O)c1ccc(C)cc1)C(=O)N[C@H](C(=O)NC(C=O)Cc1ccccc1)C(C)C (stereo partly shown) | 0.15 |  |
| CCOC(=O)c1ccc(NC(=O)N[C@@H](CCCNC(N)=NS(=O)(=O)c2ccc(C)cc2)C(=O)N[C@H](C(=O)NC(C=O)Cc2ccccc2)C(C)C)cc1 (single isomer, unassigned) | 0.12 | 0.24 |
| CC(=O)c1ccc(NC(=O)N[C@@H](CCCNC(N)=NS(=O)(=O)c2ccc(C)cc2)C(=O)N[C@H](C(=O)N[C@H](CO)Cc2ccccc2)C(C)C)cc1 | 0.013 |  |
| CC(=O)c1ccc(NC(=O)N[C@@H](CCCNC(N)=NS(=O)(=O)c2ccc(C)cc2)C(=O)N[C@H](C(=O)NC(C=O)Cc2ccccc2)C(C)C)cc1 (single isomer, unassigned) [58] | 0.0018 |  |
